Our source for the activity change (mCherry) values is PubChem BioAssay AID1053133 (Broad Institute, 2014).

Only a part is listed here, and it is no random draw. Results filed as inconclusive are left out. The source made the active and inactive calls. No stated cut-off is given here; in the data, active means activity change below about -37% (passing the limit was not always enough); inconclusive means no clear call, values can overlap the other calls; tested in A549 cells.

The nature of the assay: Vaccinia orthopox stage-specific inhibition, primary screen, cell-based, single point (AID 1053133). The settings on record: Vaccinia-infected cells, mCherry/Venus stage reporter fluorescence; stronger effect = lower value; concentration not given here.
Consider `COc1ccc(CN2/C(=N\P(=O)(Oc3ccccc3)Oc3ccccc3)Cc3ccccc3C2C2CC2)cc1` (stereo unspecified), for which the activity change (mCherry) was inactive: -8.99%.
